Measured values from several laboratories, pooled; numbers as filed in NIAID ChemDB.

Shared fields: whole-cell or culture tests; species: HIV-1; cell line: MT-4; read-out: EC50

ECn: concentration that inhibits the pathogen or its effect by n%. Lines come from different laboratories, so protocols vary. An empty or dashed field is not shown.

SMILES | strain or isolate | mutations | read by | result
CCc1c(Cc2ccccc2C)n(COCC#Cc2ccc(NC(=O)C(F)(F)F)cc2)c(=O)[nH]c1=O | IIIB | WT | MTT | 0.09 µM
Cc1cccc(C)c1C1SCC(=O)N1Cc1ccco1 | IIIB |  | cytopathic effect | 7.8 µM
Cc1c(-c2c(C(OC(C)(C)C)C(=O)O)n(C)c(=O)c3c2ccn3Cc2ccccc2)ccc2c1CCCO2 | IIIB |  | MTS | 1.36 µM
O=C1CSC(c2c(F)c(F)c(F)c(F)c2F)N1Cc1ccco1 | IIIB |  | cytopathic effect | 46.85 µM
CSCCC(NS(=O)(=O)c1ccc(Cl)cc1)c1nnc(SCc2ccc(F)cc2)o1 | IIIB |  |  | >13.65 µg/mL
COc1cccc(/C=N/NC(=O)c2c(O)c3ccccc3[nH]c2=O)c1 |  |  | MTT | >100 µg/mL
Cc1c(N)nc(Nc2ccc(C#N)cc2)nc1C(C)c1c(F)cccc1F | NL4-3 |  | MTT | 0.0006 µM
CC1(C)Oc2ccc3ccc(=O)oc3c2[C@@H](OC(=O)C23CCC(C)(C(=O)O2)C3(C)C)[C@H]1OC(=O)C12CCC(C)(C(=O)O1)C2(C)C | PRMDR | PR-M46I L63P V82T I84V | p24 | 0.09 µM
Cc1cc(C#N)cc(C)c1Oc1nc(Nc2ccc(C#N)cc2)ncc1SCC(=O)NCC1CCCO1 |  | RES056 | MTT | 0.5179 µM
CC(NS(=O)(=O)c1ccc(Cl)cc1)c1nnc(SCc2ccccc2)o1 | IIIB |  |  | >65.63 µg/mL
NC(N)=NCCCC(NC(=S)NC(=O)CCCN1C(=O)c2ccccc2C1=O)C(=O)O | IIIB |  | MTT | >12.6 µM
CCc1c(Cc2cc(C)cc(C)c2)n(COC/C=C/c2ccccc2)c(=O)[nH]c1=O | NNRTI-resistant (RT K103N Y181C) A17 | RT-K103N Y181C | cytopathic effect / MTT | 10 µM
CSCCC(NS(=O)(=O)c1ccc(C)cc1)c1nnc(SCc2ccc(Cl)cc2)o1 | IIIB |  |  | >13 µg/mL
CCOP(=O)(OCC)C(Cc1ccccc1)N[C@@H](Cc1ccccc1)[C@H](O)CN(CC(C)C)S(=O)(=O)c1ccc(OC)cc1 | IIIB |  | MTT | >13.25 µg/mL
COC(=O)C(CC(C)C)NC(=O)CCCN1C(=O)c2ccccc2C1=O | IIIB |  | MTT | >10.89 µM
CCCc1c(Cc2ccccc2)n(COC/C=C/c2ccccc2)c(=O)[nH]c1=O | IIIB |  | cytopathic effect / MTT | 0.01 µM
Cc1cc(C#N)cc(C)c1Oc1nc(Nc2ccc(C#N)cc2)ncc1SCC(=O)NCc1ccc(O)cc1 | IIIB |  | MTT | 0.0078 µM
Cc1cn([C@H]2C=C[C@@H](COP(=O)(Nc3cc(C(=O)Nc4cc(C(=O)Nc5cc(C(=O)NCCC(=N)N)n(C)c5)n(C)c4)n(C)c3)OC(C)C)O2)c(=O)[nH]c1=O |  |  | p24 / antigen | 0.08 µM
O=C(CCCN1C(=O)c2ccccc2C1=O)NC(=S)NC(Cc1ccc(O)cc1)C(=O)O | IIIB |  | MTT | >37.82 µM
C=CCNC(=O)CSc1cnc(Nc2ccc(C#N)cc2)nc1Oc1c(C)cc(C#N)cc1C |  | E138K | MTT | 0.0113 µM
CCc1c(Cc2cc(C)cc(C)c2)n(COCc2ccc(C#CCO)cc2)c(=O)[nH]c1=O | IIIB | K103N + Y181C | MTT | 0.6 µM
CSCCC(NS(=O)(=O)c1ccc(Cl)cc1)c1nnc(SCc2ccc(Br)cc2)o1 | IIIB |  |  | >12.3 µg/mL
CCc1c(Cc2cc(C)cc(C)c2)n(COCC#Cc2ccc(NC(=O)CBr)cc2)c(=O)[nH]c1=O | IIIB | WT | MTT | 0.008 µM
CCCc1c(Cc2ccccc2)n(COC/C(C)=C/c2ccccc2)c(=O)[nH]c1=O | NNRTI-resistant (RT Y181C) N119 | RT-Y181C | cytopathic effect / MTT | >100 µM
Cc1ccc(S(=O)(=O)NC(C)c2nnc(SCc3ccc(F)cc3)o2)cc1 | IIIB |  |  | >70.8 µg/mL
CCCc1c(Cc2cc(C)cc(C)c2)n(COC/C(C)=C/c2ccccc2)c(=O)[nH]c1=O | NNRTI-resistant (RT K103N Y181C) A17 | RT-K103N Y181C | cytopathic effect / MTT | >100 µM
Cc1cn([C@H]2C[C@H](N=[N+]=[N-])[C@@H](COP(=O)(Nc3cc(C(=O)Nc4cc(C(=O)Nc5cc(C(=O)NCCC(=N)N)n(C)c5)n(C)c4)n(C)c3)OC(C)C)O2)c(=O)[nH]c1=O |  |  | p24 / antigen | 0.007 µM
C#CCNC(=O)CSc1cnc(Nc2ccc(C#N)cc2)nc1Oc1c(C)cc(C#N)cc1C |  | RES056 | MTT | 0.2096 µM
Cc1cn([C@@H]2O[C@H](CO)C3(OS(=O)(=O)C=C3N)[C@H]2O[Si](C)(C)C(C)(C)C)c(=O)[nH]c1=O | IIIB |  | cytopathic effect / trypan blue | >40 µg/mL
CC(C)(CS(=O)(=O)[O-])[NH2+]C(=O)C(CC(F)(OC(F)(F)C(F)(OC(F)(F)C(F)(OC(F)(F)C(F)(F)C(F)(F)F)C(F)(F)F)C(F)(F)F)C(F)(F)F)C(F)(OC(F)(F)C(F)(OC(F)(F)C(F)(OC(F)(F)C(F)(F)C(F)(F)F)C(F)(F)F)C(F)(F)F)C(F)(F)F | IIIB-R |  | cytopathic effect / MTT | 0.71 µg/mL
Cc1ccccc1C1SCC(=O)N1Cc1ccco1 | IIIB |  | cytopathic effect | 29.08 µM
COC(=O)C(NC(=O)CCCN1C(=O)c2ccccc2C1=O)C(C)O | IIIB |  | MTT | >37.82 µM
Cc1cc(C#N)cc(C)c1Oc1nc(Nc2ccc(C#N)cc2)ncc1SCC(=O)Nc1ccc(S(C)(=O)=O)cc1 |  | RES056 | MTT | 0.5926 µM
Cc1ccc(S(=O)(=O)NC(Cc2ccccc2)c2nnc(SCc3ccc(Br)cc3)o2)cc1 | IIIB |  |  | >82.1 µg/mL
Cc1cn([C@H]2C=C[C@@H](COP(=O)(Nc3cc(C(=O)Nc4cc(C(=O)Nc5cc(C(=O)NCCC#N)n(C)c5)n(C)c4)n(C)c3)OC(C)C)O2)c(=O)[nH]c1=O |  |  | p24 / antigen | 0.16 µM
COC(=O)C(CS)NC(=O)CCCN1C(=O)c2ccccc2C1=O | IIIB |  | MTT | >60.33 µM
Cc1cn([C@H]2C[C@H](N=[N+]=[N-])[C@@H](COP(=O)(Nc3cc(C(=O)Nc4cc(C(=O)Nc5cc(C(=O)Nc6cc(C(=O)NCCC(=N)N)n(C)c6)n(C)c5)n(C)c4)n(C)c3)OC3CCCCC3)O2)c(=O)[nH]c1=O |  |  | p24 / antigen | 0.07 µM
CCc1c(Cc2cc(C)cc(C)c2)n(COC/C(C)=C/c2ccccc2)c(=O)[nH]c1=O | NNRTI-resistant (RT K103N Y181C) A17 | RT-K103N Y181C | cytopathic effect / MTT | 4 µM
Cc1cn([C@H]2C=C[C@@H](COP(=O)(Nc3cc(C(=O)Nc4cc(C(=O)Nc5cc(C(=O)NCCC#N)n(C)c5)n(C)c4)n(C)c3)OC3CCCCC3)O2)c(=O)[nH]c1=O |  |  | p24 / antigen | 0.4 µM
Cc1cc(C#N)cc(C)c1Oc1nc(Nc2ccc(C#N)cc2)ncc1SCC(=O)NCCN1CCN(C(=O)OC(C)(C)C)CC1 |  | F227L V106A | MTT | 0.893 µM
CSCCC(c1nnc(SCc2ccc(F)cc2)o1)N(Cc1ccc(F)cc1)S(=O)(=O)c1ccc(C)cc1 | IIIB |  |  | >125 µg/mL
CC(C)CN(C[C@@H](O)[C@H](Cc1cc(F)cc(F)c1)NC(=O)O[C@H]1CO[C@H]2OC[C@H](NC(C)C)[C@H]21)S(=O)(=O)c1ccc2nc(NC3CC3)sc2c1 | NL4-3 |  | MTT / p24 | 0.00034 µM
Cc1cc(C#N)cc(C)c1Oc1nc(Nc2ccc(C#N)cc2)ncc1SCC(=O)NC1CC1 |  | K103N | MTT | 0.0022 µM
CCc1c(Cc2cc(C)cc(C)c2)n(COCC#Cc2cnccn2)c(=O)[nH]c1=O | IIIB | Y181C | MTT | 11 µM
C[C@@H]1CCO[C@H]2Cn3cc(C(=O)NCc4ccc(F)cc4F)c(=O)c(O)c3C(=O)N12 | NL4-3 |  | p24 / luminescence | 0.0007 µM
CCOP(=O)(CN[C@@H](Cc1ccccc1)[C@H](O)CN(CC(C)C)S(=O)(=O)c1ccc(OC)cc1)OCC | RES056 |  | MTT | 7.4 µg/mL
CN(C)c1ccc(Nc2c3ccc(NC(=O)CCN4CCCC4)cc3nc3cc(NC(=O)CCN4CCCC4)ccc23)cc1 | IIIB |  | p24 / single cycle | 5.6 µM
CC(NS(=O)(=O)c1ccc(Cl)cc1)c1nnc(SCc2ccc(Br)cc2)o1 | IIIB |  |  | >12.33 µg/mL

Repeating the final 5 entries:

SMILES,strain or isolate,mutations,read by,result
CCc1c(Cc2cc(C)cc(C)c2)n(COCC#Cc2cnccn2)c(=O)[nH]c1=O,IIIB,Y181C,MTT,11 µM
C[C@@H]1CCO[C@H]2Cn3cc(C(=O)NCc4ccc(F)cc4F)c(=O)c(O)c3C(=O)N12,NL4-3,,p24 / luminescence,0.0007 µM
CCOP(=O)(CN[C@@H](Cc1ccccc1)[C@H](O)CN(CC(C)C)S(=O)(=O)c1ccc(OC)cc1)OCC,RES056,,MTT,7.4 µg/mL
CN(C)c1ccc(Nc2c3ccc(NC(=O)CCN4CCCC4)cc3nc3cc(NC(=O)CCN4CCCC4)ccc23)cc1,IIIB,,p24 / single cycle,5.6 µM
CC(NS(=O)(=O)c1ccc(Cl)cc1)c1nnc(SCc2ccc(Br)cc2)o1,IIIB,,,>12.33 µg/mL